Results of unrelated studies side by side (data: NIAID ChemDB).

Shared fields: growth or infection tests; agent: Hepatitis B virus; read-out: EC50

ECn: concentration that inhibits the pathogen or its effect by n%. a–b is a range or a potency band. Neighbouring rows are from separate reports.

compound | cell line | read by | value
CCOC(=O)C1=C(CN2CC(F)(F)[C@@H]3[C@H]2CON3C[C@H](O)C(CC)(CC)C(=O)O)NC(c2nccs2)=N[C@H]1c1cccc(F)c1C | HepG2.2.15 | PCR | 0.0195 µM
Cn1nc2cc(NS(=O)(=O)c3cnn(-c4ccccn4)c3)ccc2c1C(=O)Nc1ccc(F)c(Cl)c1 | HepAD38 | PCR | <100 µM
CCNC(=O)C(=O)N1CCC(NS(=O)(=O)c2cn(C)c(C(=O)Nc3cc(F)c(F)c(F)c3)c2Cl)C2(CC2)C1 | HepAD38 cells | PCR | <0.1 µM
O=C(NCc1ccccc1)c1c2n(c(=O)n1-c1ccc(OC(F)F)cc1)CCN(C(=O)c1ccc(Cl)c(Cl)c1)C2 | HepG2.117 | PCR | 0.5–5 µM
CNC(=O)C(=O)N1CC[C@@H](NS(=O)(=O)c2cn(C3CCCC3)c(C(=O)Nc3ccc(F)c(F)c3)c2F)C1 | HepAD38 cells | PCR | 0.3–1 µM
Cn1nc2cc(NS(=O)(=O)c3cccs3)ccc2c1C(=O)Nc1ccc(F)c(Cl)c1 | HepAD38 | PCR / entry | 100–1000 µM
CNS(=O)(=O)N1CC[C@@H](NS(=O)(=O)c2cn(C)c(C(=O)Nc3ccc(F)c(C#N)c3)c2F)C1 | HepAD38 cells | PCR | <0.1 µM
CCOC(=O)C1=C(CN2CC(F)(F)[C@@H]3[C@H]2CON3CC(CC(C)(C)C(=O)O)OC)NC(c2nccs2)=N[C@H]1c1cccc(F)c1C | HepG2.2.15 | PCR | 0.009 µM
C#CC1(NC(=O)C(=O)c2c(C)c(C(=O)Nc3ccc(F)c(C#N)c3)n(C)c2C)CCCC1 | HepG2.2.15 | PCR | 0.001–0.0099 µM
COc1ccc(-n2c(C(=O)N[C@H](C)c3ccc(Br)cc3)c3n(c2=O)CCN(C(=O)c2ccc(Br)c(Cl)c2)C3)cc1 | HepG2.117 | PCR | 0.1–0.5 µM
Cc1cccnc1CNS(=O)(=O)Nc1ccc2c(C(=O)Nc3ccc(F)c(Cl)c3)n(C)nc2c1 | HepAD38 | PCR | 100–1000 µM
CCOC(=O)C1=C(CN2CC(F)(F)[C@@H]3[C@H]2CON3C[C@H](O)C(C)(C)C(=O)O)NC(c2nccs2)=N[C@H]1c1cccc(F)c1Cl | HepG2.2.15 | PCR | 0.0285 µM
Cc1c(C(=O)C(=O)NC2(C#CC3(O)CC3)COC2)c(C)n(C)c1C(=O)Nc1ccc(F)c(C#N)c1 | HepG2.2.15 | PCR | 0.001–0.0099 µM
Cn1nc2ccc(N)cc2c1C(=O)Nc1ccc(F)c(Cl)c1 | HepAD38 | PCR | 100–1000 µM
C#CC1(NC(=O)C(=O)c2c(C)c(C(=O)Nc3ccc(F)c(C#N)c3)n(C)c2C)CC(F)(F)C1 | HepG2.2.15 | PCR | <0.001 µM
Cn1nc2cc(NS(=O)(=O)c3cnn(-c4cccc(F)n4)c3)ccc2c1C(=O)Nc1ccc(F)c(Cl)c1 | HepAD38 | PCR | <100 µM
COc1ccc(-n2c(C(=O)NC3(CO)CC3)c3n(c2=O)CCN(C(=O)c2ccc(Cl)c(Cl)c2)C3)cc1 | HepG2.117 | PCR | >5 µM
CCOC(=O)C1=C(CN2CC(F)(F)[C@@H]3[C@H]2CON3C[C@H](OC)C(C)(C)C(=O)O)NC(c2nc(C)cs2)=N[C@H]1c1cccc(F)c1C | HepG2.2.15 | PCR | 0.012 µM
O=C(NCc1ccccc1)c1c2n(c(=O)n1-c1ccc3[nH]c(C(F)(F)F)cc3c1)CCN(C(=O)c1ccc(Br)c(Cl)c1)C2 | HepG2.117 | PCR | 0.5–5 µM
C=CC1(NC(=O)C(=O)c2c(C)c(C(=O)Nc3ccc(F)c(C#N)c3)n(C)c2Cl)COC1 | HepG2.2.15 | PCR | 0.001–0.0099 µM
COC(=O)C1=C(CN2CC(F)(F)[C@@H]3[C@H]2CON3C[C@H](O)C(C)(C)C(=O)O)NC(c2nccs2)=N[C@H]1c1ccc(F)c(F)c1Cl | HepG2.2.15 | PCR | 0.042 µM
Cn1nc2cc(NS(=O)(=O)C3CC3)c(F)cc2c1C(=O)Nc1ccc(F)c(Cl)c1 | HepAD38 | PCR | >1000 µM
COc1ccc(-n2c(C(=O)NCc3ccc(F)cc3)c3n(c2=O)CCN(C(=O)c2ccc(Cl)c(Cl)c2)C3)cc1 | HepG2.117 | PCR | 0.5–5 µM
Cc1ccnc(-n2cc(S(=O)(=O)Nc3ccc4c(C(=O)Nc5ccc(F)c(Cl)c5)n(C)nc4c3)cn2)c1 | HepAD38 | PCR | <100 µM
CN(C)C(=O)C(=O)N1CC[C@@H](NS(=O)(=O)c2cn(C)c(C(=O)Nc3cc(F)c(F)c(F)c3)c2F)C1 | HepAD38 cells | PCR | <0.1 µM
CCOC(=O)C1=C(CN2CC(F)(F)[C@H]3[C@@H]2CCN3CC[C@](C)(O)C(=O)O)NC(c2nccs2)=N[C@H]1c1ccc(F)c(F)c1C | HepG2.2.15 | PCR | 0.007 µM
C[C@H]1Cn2c(c(C(=O)NCc3ccccc3-c3ncccn3)n(-c3ccc(OC4CC4)cc3)c2=O)CN1C(=O)c1ccc(Br)c(C#N)c1 | HepG2.117 | PCR | <0.1 µM
CN(CC1CC1)S(=O)(=O)Nc1ccc2c(C(=O)Nc3ccc(F)c(Cl)c3)n(C)nc2c1 | HepAD38 | PCR | 100–1000 µM

A second listing of 2 rows from above:

compound	cell line	read by	value
CCOC(=O)C1=C(CN2CC(F)(F)[C@@H]3[C@H]2CON3C[C@H](O)C(CC)(CC)C(=O)O)NC(c2nccs2)=N[C@H]1c1cccc(F)c1C	HepG2.2.15	PCR	0.0195 µM
CNS(=O)(=O)N1CC[C@@H](NS(=O)(=O)c2cn(C)c(C(=O)Nc3ccc(F)c(C#N)c3)c2F)C1	HepAD38 cells	PCR	<0.1 µM